Laboratory results: ChEMBL document CHEMBL3576781, “Substituted Bis-THF Protease Inhibitors with Improved Potency against Highly Resistant Mature HIV-1 Protease PR20” (J Med Chem, 2015)

Assays:
[1] = tested on: Human immunodeficiency virus 1; assay: Resistance index, ratio of Ki for HIV1 protease PR20 mutant expressed in Escherichia coli BL21 (DE3) to Ki for wild type HIV1 protease
[2] = tested on: Human immunodeficiency virus 1; assay: Potency index, ratio of Ki for darunavir to Ki for compound against HIV1 protease PR20 mutant expressed in Escherichia coli BL21 (DE3)

## CC(C)CN(C[C@@H](O)[C@H](Cc1ccccc1)NC(=O)O[C@H]1CO[C@H]2OCC(F)(F)[C@H]21)S(=O)(=O)c1ccc(N)cc1
[1]
  Ratio Ki: 300
[2]
  Ratio Ki: 2
